Measured values from several laboratories, pooled; numbers as filed in NIAID ChemDB.

All rows: cytotoxicity tests; cell line: MT-4; measure: CC50

CCn: concentration that lowers growth or viability of the cells by n%.

smiles	method	value
Cc1c(OC(=O)CCCCOc2ccc(C[C@H](N)C(=O)O)cc2)cccc1C(=O)N[C@@H](CSc1ccccc1)[C@H](O)CN1C[C@H]2CCCC[C@H]2C[C@H]1C(=O)NC(C)(C)C	MTT	>100 µM
CCOC(=O)CNS(=O)(=O)c1cc(Cl)ccc1N	MTT	>200 µM
CCCc1c(Cc2cccc3ccccc23)n(COCC)c(=O)[nH]c1=O	-	39.8 µM
CC1(C)[C@@H](CCO)C[C@H]1n1nnc2c(=O)[nH]c(N)nc21	-	≥250 µg/mL
C/C=C(\C)C(=O)O[C@H]1[C@H](O)[C@@]23C(CC1(C)C)[C@]1(CCC4[C@@]5(C)CC[C@H](O[C@@H]6O[C@H](CO)[C@@H](O)[C@H](O[C@@H]7O[C@H](CO)[C@H](O)[C@H](O)[C@H]7O[C@@H]7O[C@@H](C)[C@H](O)[C@@H](O)[C@H]7O)[C@H]6O[C@@H]6O[C@H](CO)[C@H](O)[C@H](O)[C@H]6O)C(C)(C)C5CC[C@@]4(C)[C@]1(C)C[C@H]2OC(C)=O)O[C@@H]3O	MTT	<150 µg/mL
N#C/C(=C/C1CCCCC1)n1nnc2ccccc21	-	6 µM
CC1(C)[C@@H](CCO)C[C@H]1n1nnc2c(N)ncnc21	-	83 µg/mL
CC(=O)c1c(C)nc(-c2ccccc2)nc1NC(=O)c1ccccc1	trypan blue	>50 µM
C/C(=N\Nc1nc(-c2ccc(Br)cc2)cs1)c1ccc(-n2ccnc2)cc1	MTT	87.33 µM
CCN1CC(=O)Nc2ccc(Cl)cc2S1(=O)=O	MTT	>200 µM
Clc1ccc(-c2csc(N/N=C/c3ccco3)n2)cc1	MTT	27.9 µM
CC(C)(C)NC(=O)[C@@H]1C[C@@H]2CCCC[C@@H]2CN1C[C@@H](OC(=O)NCCCCOc1ccc(C[C@H](N)C(=O)O)cc1)[C@H](Cc1ccccc1)NC(=O)[C@H](CC(N)=O)NC(=O)c1ccc2ccccc2n1	MTT	>100 µM
C=CCN1C(C)C(=S)Nc2ccc(Cl)cc2S1(=O)=O	MTT	16 µM
CCCc1c(Cc2cccc3ccccc23)n(COC)c(=O)[nH]c1=O	-	188 µM
COc1cc(C[C@@H](C)[C@@H](C)Cc2cc(O)c(OC)c(OC)c2)cc(O)c1OC	MTT	21.88 µg/mL
C/C=C(\C)C(=O)O[C@H]1[C@H](OC(=O)/C(C)=C/C)[C@@]23C(CC1(C)C)[C@]1(CCC4[C@@]5(C)CC[C@H](O[C@@H]6O[C@H](CO)[C@@H](O)[C@H](O[C@@H]7O[C@H](CO)[C@H](O)[C@H](O)[C@H]7O[C@@H]7O[C@@H](C)[C@H](O)[C@@H](O)[C@H]7O)[C@H]6O[C@@H]6O[C@H](CO)[C@H](O)[C@H](O)[C@H]6O)C(C)(C)C5CC[C@@]4(C)[C@]1(C)C[C@H]2OC(C)=O)O[C@@H]3O	MTT	<150 µg/mL
CCCCCCCC/C=C\CCCCCCCC(=O)O[C@H](CN1C[C@H]2CCCC[C@H]2C[C@H]1C(=O)NC(C)(C)C)[C@H](Cc1ccccc1)NC(=O)[C@H](CC(N)=O)NC(=O)c1ccc2ccccc2n1	MTT	>100 µM
CC1(C)[C@@H](CCO)C[C@H]1n1cnc2c(N)nc(N)nc21	-	≥250 µg/mL
N#C/C(=C\c1cccc(Cl)c1Cl)n1nnc2ccccc21	-	4 µM
CCCCCCCC/C=C\CCCCCCCC(=O)OCC(COC(=O)CCCCCCC/C=C\CCCCCCCC)OC(=O)CCC(=O)O[C@@H]1Cc2ccccc2[C@@H]1NC(=O)[C@H](Cc1ccccc1)C[C@H](O)CN1CCN(Cc2cccnc2)C[C@H]1C(=O)NC(C)(C)C	MTT	>100 µM
C/C=C(\C)C(=O)O[C@H]1[C@H](O)[C@@]23C(CC1(C)C)[C@]1(CCC4[C@@]5(C)CC[C@H](O[C@@H]6O[C@H](CO)[C@@H](O)[C@H](O[C@@H]7O[C@H](CO)[C@H](O)[C@H](O)[C@H]7O[C@@H]7O[C@@H](C)[C@H](O)[C@@H](O)[C@H]7O)[C@H]6O[C@@H]6O[C@H](CO)[C@H](O)[C@H](O)[C@H]6O)C(C)(C)C5CC[C@@]4(C)[C@]1(C)C[C@H]2O)O[C@@H]3O	MTT	<150 µg/mL
CC(=O)Nc1cnc(Oc2c(C)cc(Br)cc2C)nc1Nc1ccc(C#N)cc1	MTT	147 µM
CCc1c(Cc2cccc3ccccc23)n(COCCO)c(=O)[nH]c1=O	-	191 µM
CCOC(=O)C(C)N(CC=C(C)C)S(=O)(=O)c1cc(Cl)ccc1[N+](=O)[O-]	MTT	91 µM
N#C/C(=C\C(c1ccccc1)c1ccccc1)n1nnc2ccccc21	-	>100 µM
CN1c2ccccc2C2C1C=C(C#N)C(=O)N2c1ccc([N+](=O)[O-])cc1	trypan blue	>50 µM
CC1C(=O)Nc2ccc(Cl)cc2S(=O)(=O)N1CC1CC1	MTT	>200 µM
CCc1c(Cc2cccc3ccccc23)n(COCc2ccccc2)c(=O)[nH]c1=O	-	32.56 µM
Cc1ccc(/C=N/Nc2nc(-c3ccc(Br)cc3)cs2)cc1	MTT	125 µM
Cc1c(O)cccc1C(=O)N[C@@H](CSc1ccccc1)[C@@H](CN1C[C@H]2CCCC[C@H]2C[C@H]1C(=O)NC(C)(C)C)OC(=O)CCCCOc1ccc(C[C@H](NC(=O)OC(C)(C)C)C(=O)O)cc1	MTT	>100 µM
COc1cc([C@H]2O[C@@H](c3ccc(O)cc3)[C@H](C)[C@@H]2C)ccc1O	MTT	83.18 µg/mL
Cc1ccnc2c1NC(=O)c1cccnc1N2C1CC1	MTT	>15 µM
COCn1c(Cc2ccc3ccccc3c2)c(C)c(=O)[nH]c1=O	-	174 µM
COc1cc(/C(C)=N/Nc2nc(-c3ccc(Cl)cc3)cs2)cc(OC)c1OC	MTT	16.39 µM
N#C/C(=C/c1ccc[nH]1)n1nc2ccccc2n1	-	80 µM
CC(=O)Nc1cnc(Oc2c(C)cc(C#N)cc2C)nc1Nc1ccc(C#N)cc1	MTT	>313 µM
Cc1cn([C@H]2C[C@H](N=[N+]=[N-])[C@@H](CO)O2)c(=O)[nH]c1=O	MTT	>25 µM
N#C/C(=C\c1ccccc1F)n1nnc2ccccc21	-	2.5 µM
Cc1cc(Br)cc(C)c1Oc1ncc(N)c(Nc2ccc(C#N)cc2)n1	MTT	31 µM
Brc1ccc(-c2csc(N/N=C/c3ccccn3)n2)cc1	MTT	2.71 µM
N#C/C(=C/c1cccc(Br)c1)n1nnc2ccccc21	-	3 µM
CC(C)C[C@H](NC(=O)OC(C)(C)C)C(=O)O[C@H](CN1C[C@H]2CCCC[C@H]2C[C@H]1C(=O)NC(C)(C)C)[C@H](Cc1ccccc1)NC(=O)[C@H](CC(N)=O)NC(=O)c1ccc2ccccc2n1	MTT	>100 µM
C/C=C(\C)C(=O)O[C@H]1[C@H](OC(C)=O)[C@@]23C(CC1(C)C)[C@]1(CCC4[C@@]5(C)CC[C@H](O[C@@H]6O[C@H](CO)[C@@H](O)[C@H](O[C@@H]7O[C@H](CO)[C@H](O)[C@H](O)[C@H]7O[C@@H]7O[C@@H](C)[C@H](O)[C@@H](O)[C@H]7O)[C@H]6O[C@@H]6O[C@H](CO)[C@H](O)[C@H](O)[C@H]6O)C(C)(C)C5CC[C@@]4(C)[C@]1(C)C[C@H]2OC(C)=O)O[C@@H]3O	MTT	<150 µg/mL
CC(C)(C)NC(=O)[C@@H]1CN(Cc2cccnc2)CCN1C[C@H](C[C@@H](Cc1ccccc1)C(=O)N[C@H]1c2ccccc2C[C@H]1OC(=O)CCCCOc1ccc(C[C@H](NC(=O)OC(C)(C)C)C(=O)O)cc1)OC(=O)CCCCOc1ccc(C[C@H](NC(=O)OC(C)(C)C)C(=O)O)cc1	MTT	>100 µM
N#C/C(=C\c1c(Cl)cccc1Cl)n1nnc2ccccc21	-	5 µM
Nc1nc2c(ncn2[C@@H]2C[C@@H](F)[C@H](CO)O2)c(=O)[nH]1	-	>100 µM
C/C(=N\Nc1nc(-c2ccc(Cl)cc2)cs1)c1ccc(-n2ccnc2)cc1	MTT	92.25 µM
C/C=C(\C)C(=O)O[C@H]1[C@H](OC(C)=O)[C@@]23C(CC1(C)C)[C@]1(CCC4[C@@]5(C)CC[C@H](O[C@@H]6O[C@H](CO)[C@@H](O)[C@H](O[C@@H]7O[C@H](CO)[C@H](O)[C@H](O)[C@H]7O[C@@H]7O[C@@H](C)[C@H](O)[C@@H](O)[C@H]7O)[C@H]6O[C@@H]6O[C@H](CO)[C@H](O)[C@H](O)[C@H]6O)C(C)(C)C5CC[C@@]4(C)[C@]1(C)C[C@H]2O)O[C@@H]3O	MTT	<15 µg/mL
Cc1cc(C=O)cc(C)c1Oc1ncc(N)c(Nc2ccc(C#N)cc2)n1	MTT	≥34 µM
C/C(=N\Nc1nc(-c2ccc(Br)cc2)cs1)c1ccc(Cl)c(Cl)c1	MTT	13.05 µM

Conditions beyond the fields shown may differ between rows. An empty or dashed field is not shown.